Source: patent publication US9120787B2, “HIV replication inhibitors” (priority 2011, dated 2015)

Assays:
MAGI-CCR5 cells = test: Cytotoxicity by MTS staining in uninfected MAGI-CCR5 cells; assay type: cell-based; conditions: 48 hours, read-out: TC50 (the source's name)
Protocol: The anti-viral activity of dihydropyrimidines was shown by inhibition of virus replication in MAGI-CCR5 cells. MAGI-CCR5 cells are derived from HeLa-CD4-LTR-β-galactosidase cells. The cells have been engineered to express high levels of CD4 and CCR5 and contain one copy of the HIV-1 LTR promoter driving expression of the β-galactosidase gene upon HIV-1 Tat transactivation. On the day preceding the assay, the cells were plated at 1.0×10^4 cells per well and maintained at 37° C. and 5% CO2 in a humidified incubator. Total cell count and viability was visually assessed using a hemacytometer and trypan blue exclusion. Compounds were evaluated at six concentrations (triplicate wells/concentration). On the day of assay setup, compound dilutions were prepared at two-times (2×) the final concentrations. Media was decanted and wells were replenished with 50 μl of 2× compounds, followed by the addition of 50 μl of diluted virus. Identical uninfected assays were prepared for parallel cytotoxicity testing.

[1] = tested on: peripheral blood mononuclear cells (PBMC); test: Cytotoxicity by MTS staining in PBMCs; assay type: cell-based; conditions: read-out: TC50 (the source's name)
Protocol: Cytotoxicity was assessed by MTS staining. At assay end-point, PBMC were stained with the addition of […] of the soluble tetrazolium-based dye MTS to determine cell viability and quantify compound toxicity. The plates were incubated 4 to 6 hrs at 37° C. Following incubation, the activity was assessed by reading absorbance values at 490/650 nm.

Maraviroc [reference compound]
CC50 (MAGI-CCR5 cells): > 1000 nM | CC50 [1]: > 1000 nM
